{"source": "paper PMC4393303", "about": "(PLoS ONE, 2015)", "assay_in_all_cases": "purified protein", "key": {"[1]": {"system": "NC(=O)C1=CN([C@@H]2O[C@H](COP(=O)(O)OP(=O)(O)OC[C@H]3O[C@@H](n4cnc5c(N)ncnc54)[C@H](O)[C@@H]3O)[C@@H](O)[C@H]2O)C=CC1", "details": "pH 9.0; varied: cofactor"}, "[2]": {"system": "NC(=O)c1ccc[n+]([C@@H]2O[C@H](COP(=O)(O)OP(=O)(O)OC[C@H]3O[C@@H](n4cnc5c(N)ncnc54)[C@H](O)[C@@H]3O)[C@@H](O)[C@H]2O)c1", "details": "pH 9.0; varied: cofactor"}, "O=C(O)CC(=O)C(=O)O": {"system": "O=C(O)CC(=O)C(=O)O", "details": "pH 9.0"}, "O=C(O)C[C@H](O)C(=O)O": {"system": "O=C(O)C[C@H](O)C(=O)O", "details": "pH 9.0"}}}
{"substance": "NAD+-dependent malate dehydrogenase (MDH; His6-MDH) (Mycobacterium tuberculosis H37Rv)", "values": [{"measurement": "Km", "setting": "[1]", "result": 80, "unit": "µM"}, {"measurement": "kcat/Km", "setting": "[1]", "result": "4.16e+07", "unit": "M⁻¹ s⁻¹"}, {"measurement": "Km", "setting": "[2]", "result": 130, "unit": "µM"}, {"measurement": "kcat/Km", "setting": "[2]", "result": "2.46e+06", "unit": "M⁻¹ s⁻¹"}, {"measurement": "Km", "setting": "O=C(O)CC(=O)C(=O)O", "result": 140, "unit": "µM"}, {"measurement": "kcat/Km", "setting": "O=C(O)CC(=O)C(=O)O", "result": "1.74e+07", "unit": "M⁻¹ s⁻¹"}, {"measurement": "Km", "setting": "O=C(O)C[C@H](O)C(=O)O", "result": 1040, "unit": "µM"}, {"measurement": "kcat/Km", "setting": "O=C(O)C[C@H](O)C(=O)O", "result": 290000, "unit": "M⁻¹ s⁻¹"}]}
